Measurements taken from patent publication US20050004011A1, “Compositions and methods for treating bacterial infections with protein-dalbavancin complexes” (priority 2002, published 2005).

Test system: N,N′-diacetyl-Lys-D-Ala-D-Ala
Assay: ITC of binding to tri-peptide, with and without HSA

CN[C@H]1C(=O)N[C@@H]2Cc3ccc(cc3)Oc3cc4cc(c3O[C@@H]3O[C@H](C(=O)O)[C@@H](O)[C@H](O)[C@H]3NC(=O)CCCCCCCCC(C)C)Oc3ccc(cc3Cl)[C@@H](O)[C@@H]3NC(=O)[C@H](NC(=O)[C@@H]4NC(=O)[C@@H](NC2=O)c2cc(cc(O)c2Cl)Oc2cc1ccc2O)c1ccc(O)c(c1)-c1c(O[C@H]2O[C@H](CO)[C@@H](O)[C@H](O)[C@@H]2O)cc(O)cc1[C@@H](C(=O)NCCCN(C)C)NC3=O [Dalbavancin]
ΔH (T 25 ° C., [HSA] 34.2 μM): -20.00 kcal/mol
ΔH (T 25 ° C., [HSA] 104 μM): -18.60 kcal/mol
ΔS (T 25 ° C., [HSA] 104 μM): −41.70 eu
ΔH (T 25 ° C., [HSA] 288 μM): -21.05 kcal/mol
ΔS (T 25 ° C., [HSA] 288 μM): −50.00 eu
ΔH (T 25 ° C., [HSA] 430 μM): -19.50 kcal/mol
ΔS (T 25 ° C., [HSA] 430 μM): −44.90 eu
ΔH (T 37 ° C., [HSA] 516 μM): -26.60 kcal/mol
ΔS (T 37 ° C., [HSA] 516 μM): −67.60 eu
